Data as given in PubChem BioAssay AID504761 (Drosophila RNAi Screening Center, 2011).

Purpose: 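Genome-wide fly cell screen for genes dengue virus requires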 (primary screen)
Cells: D.Mel-2 cells from Drosophila
Reagents: long dsRNA against Drosophila genes
Challenge: infection with dengue virus type 2; dose and infection time not stated
Read-out: 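Per well on two replicate plates, imaging gave the percent of cells positive for viral envelope protein, ranked by infection, and a nuclear count of cells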
Direction: infection score: higher = more virus-infected cells; cell count: higher = more cells in the well
Call rule: 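Very low infection ranking in both replicate wells (chance probability at most 0.065), then a retest showing infection dropped 1.5-fold or more at p below 0.05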
Meaning of the calls: active = confirmed: knock-down lowers infection; inactive = not picked or not confirmed
In all, the deposit lists about 22,000 reagents; shown is a random part of those with a known target gene and a result. Over the whole deposit, 116 (0.52%) were called active. 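Calls depend on retest data that are not deposited; infection was ranked per plate without normalising between plates; the unit of the infection score is not given.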 The raw values are shown without normalisation. Names joined by + are all predicted targets of the reagent. Not all columns of the deposit are shown. No sequences are given here. The record does not give: the amount of reagent, the time to read-out.

no.	gene	amplicon	infection score, replicate 1	infection score, replicate 2	cell count, replicate 1	call
1	mor (moira)	DRSC15378	4.32	4.64	5376	inactive
2	mor (moira)	DRSC27980	4.38	7.32	4698	inactive
3	Hmgs (HMG Coenzyme A synthase)	DRSC06866	15.8	18.9	4945	inactive
4	Hmgs (HMG Coenzyme A synthase)	DRSC28746	10.9	14.7	5982	inactive
5	HP6 (Heterochromatin protein 6)	DRSC00471	6.41	18.2	6537	inactive
6	Cyp28c1 (Cytochrome P450 28c1)	DRSC20236	11.7	22.9	2301	inactive
7	CG9205	DRSC08642	12.7	10.3	5718	inactive
8	CG13192	DRSC06317	3.75	15	6672	inactive
9	ND-30 (NADH dehydrogenase (ubiquinone) 30 kDa subunit)	DRSC08243	19.9	17.6	4645	inactive
10	CG14787	DRSC18606	5.44		6671	inactive
11	CG4452	DRSC10422	13.8	20.6	5488	inactive
12	b (black)	DRSC03487	0.92	3.06	6330	inactive
13	b (black)	DRSC28837	9.56	32.9	6152	inactive
14	mdlc (midlife crisis)	DRSC15690	7.74	6.9	6462	inactive
15	mdlc (midlife crisis)	DRSC28632	19.9	2.27	4204	inactive
16	CG2006	DRSC15412	3.2	4.37	6306	inactive
17	CG31778	DRSC00283	0.9	0.78	6551	inactive
18	CG31220	DRSC22248	1.92	3.5	6289	inactive
19	CG31220	DRSC24492	5.78	10.6	6853	inactive
20	Ufd1 (Ubiquitin fusion-degradation 1-like)	DRSC10607	8.33	6.8	3361	inactive
21	CG30075	DRSC05484	1.66	2.43	6068	inactive
22	CG7196 (retired record)	DRSC01000	6.76	9.25	6023	inactive
23	CG7196 (retired record)	DRSC03023	4.48	5.85	6315	inactive
24	myo (myoglianin)	DRSC17174	2.64	6.26	6243	inactive
25	Ugt37A2 (UDP-glycosyltransferase family 37 member A2)	DRSC15861	1.96	2.79	6367	inactive
26	Ugt37A2 (UDP-glycosyltransferase family 37 member A2)	DRSC29967	4.68	16.9	6117	inactive
27	CG42676	DRSC08392	6.13	3.85	7100	inactive
28	CG42676	DRSC23487	2.33	15.1	6744	inactive
29	Ufsp2 (UFM1 specific peptidase 2)	DRSC10231	15.2	18	2008	inactive
30	CG18304	DRSC02664	2.05	10.4	6061	inactive
31	CG18304	DRSC28389			248	inactive
32	Srg1 (Sting-regulated gene 1)	DRSC14640			399	inactive
33	Srg1 (Sting-regulated gene 1)	DRSC29445	16.7	14.2	2626	inactive
34	CG3651	DRSC03730	13.7	33.4	6130	inactive

5 entries from above, ordered by “infection score, replicate 1”, high to low:
gene	amplicon	infection score, replicate 1	infection score, replicate 2	cell count, replicate 1	call
ND-30 (NADH dehydrogenase (ubiquinone) 30 kDa subunit)	DRSC08243	19.9	17.6	4645	inactive
CG4452	DRSC10422	13.8	20.6	5488	inactive
CG9205	DRSC08642	12.7	10.3	5718	inactive
CG14787	DRSC18606	5.44		6671	inactive
CG13192	DRSC06317	3.75	15	6672	inactive

Additional records follow.
no.	gene	amplicon	infection score, replicate 1	infection score, replicate 2	cell count, replicate 1	call
35	pdm2 (POU domain protein 2)	DRSC02496	8.65	8.02	5087	inactive
36	pdm2 (POU domain protein 2)	DRSC03587		5.22	652	inactive
37	CG14244	DRSC14739			348	inactive
38	Pdhb (Pyruvate dehydrogenase E1 beta subunit)	DRSC14420	1.25	1.65	6223	inactive
39	Pdhb (Pyruvate dehydrogenase E1 beta subunit)	DRSC29695	9.61	4.42	6232	inactive
40	CG9953	DRSC11106	2.23	2.71	5914	inactive
41	Dlip1 (Dorsal interacting protein 1)	DRSC18460	2.87	9.24	5898	inactive
42	spag4 (sperm-associated antigen 4)	DRSC02973	5.34	2.77	6345	inactive
43	Ing3 (Inhibitor of growth family, member 3)	DRSC20002	11.6	8.36	6166	inactive
44	Ing3 (Inhibitor of growth family, member 3)	DRSC27959	5.35	16.8	1889	inactive
45	Vhl (von Hippel-Lindau)	DRSC07716	17.3	7.96	5512	inactive
46	Vhl (von Hippel-Lindau)	DRSC28332	15.3	6.33	5266	inactive
47	CG30389	DRSC04077	3.93	6.22	5961	inactive
48	CG30389	DRSC04452	10.6	8.8	5133	inactive
49	CG30389	DRSC26370	12.8	12.9	6450	inactive
50	Nplp1 (Neuropeptide-like precursor 1)	DRSC04370	17.5	41.2	6398	inactive
51	Rcd2 (Reduction in Cnn dots 2)	DRSC11756	6.88	15.3	6647	inactive
52	Sin3A	DRSC07552	16.4	11	2318	inactive
53	CG3407	DRSC00603	1.3	1.33	6756	inactive
54	CG7896	DRSC16335	1.37	7.94	6508	inactive
55	CG15529	DRSC15066	7.63	4.85	6329	inactive
56	CG5890	DRSC15909	5.41	5.24	6306	inactive
57	CG3397	DRSC15487	19.8	12	5418	inactive
58	sut3 (sugar transporter 3)	DRSC07702	22.6	20.2	5766	inactive
59	sut3 (sugar transporter 3)	DRSC24322	1.08	3.72	6376	inactive
60	CG15262	DRSC01975	0.57	0.76	6350	active
61	CG15141	DRSC02441	9.06	1.55	6482	inactive
62	CG15141	DRSC02442	4.57	2.94	6607	inactive
63	CG15141	DRSC29031			138	inactive
64	CG1674	DRSC17142			310	inactive
65	CG1674	DRSC29516	15.8	11.2	5248	inactive
66	CG15876	DRSC08484	5.13	2.07	5559	inactive
67	CG15876	DRSC27697	10.9	16.6	6783	inactive
68	RpS15Ab + RpS15Aa	DRSC06129	13	13.9	2105	inactive
69	RpS15Ab + RpS15Aa	DRSC19831	2.94	7.51	2208	inactive
70	Cyp6a15Psi (pseudo)	DRSC07377	18	6.86	5961	inactive
71	Cyp6a15Psi (pseudo)	DRSC28316	13.3	17.2	5490	inactive
72	osa	DRSC17022	8.44	3.87	5308	inactive
73	CG30094	DRSC22268	4.1	22.2	6439	inactive
74	CG30094	DRSC27064	2.62	10.5	6594	inactive
